## Potato spindle tuber viroid, loop 6: variant abundance in plants

Data from the supplement of Wu et al. 2024, doi:10.1371/journal.ppat.1012142.

The pool varies loop 6 of the PSTVd intermediate strain in the pattern UNNNCGNNNG; wild type is UGACCGCGAG (upper and lower strand joined, each 5' to 3', the first 5 letters being the upper strand, closing pairs included).

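Three N. benthamiana plants were inoculated with the whole mutant pool. Samples came from the inoculated region at 5 days, the leaf margin at 10 and upper systemic leaves at 12.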

Values are reads per thousand in the sample; higher means more abundant, 0 means not found.
Each value is the mean of three plants.
"Pool" is the share in the plasmid pool used as inoculum, on the same scale.
The inoculated region was read from the minus strand, the other sites from the plus strand.
IR is the inoculated region, LM the leaf margin, Sys the systemic leaves.

sequence	pool	IR	LM	Sys
UAUACGAGUG	0.484	0.161	0.0330	0
UCCACGUAAG	0.0915	0.0719	0	0
UAUGCGGCAG	0.131	0.0595	0	0
UAUCCGAACG	0.235	0.107	0.00773	0
UCGGCGUACG	0.458	0.0826	0	0
UUCACGAGAG	0.366	0.108	0.00920	0
UAAGCGUUGG	0.353	0.0714	0	0
UGCACGCGCG	0.301	0.0652	0.00920	0
UUUGCGAUCG	0.222	0.0655	0.00773	0
UGCCCGUGGG	0.196	0.0768	0	0
UAUCCGGUAG	0.183	0.0896	0.00773	0
UAGCCGGUUG	0.275	0.108	0.0168	0
UUUUCGGCGG	0.131	0.0543	0.0169	0
UUCCCGAUAG	0.353	0.0771	0.0401	0
UCCUCGGUUG	0.275	0.0775	0.00773	0
UCUGCGGGUC	0.0131	0	0	0
UUUGCGUGGG	0.261	0.119	0.00773	0
UUCACGAUCG	0.301	0.107	0.00773	0
UUAGCGUAUG	0.431	0.0597	0.174	0.00684
UUCCCGGGAG	0.235	0.162	0.0261	0
UCAACACGGG	0.0131	0	0	0
UGCCCGACCG	0.183	0.0833	0	0
UCAUCGGAUG	0.235	0.113	0.0184	0
UUAACGCUCA	0.0131	0.517	0.0951	0
UUCACGUAUG	0.523	0.125	0.147	0
UCGCCGAGUG	0.235	0.108	0	0
UCGGCGAAUG	0.340	0.107	0.0261	0.00684
UACGCGCUCG	0.209	0.0650	0	0.00684
UUCCCGAUCG	0.275	0.101	0	0.00684
UCACCGGGGG	0.131	0.0652	0.0155	0
UAGGCGAAUG	0.261	0.0958	0	0
UCAGCGUCCG	0.353	0.125	0.0232	0.0325
UCGCCGUGUG	0.196	0.0774	0	0
UCAGCGUUCG	0.157	0.0538	0.0276	0
UCCCCGGCUG	0.405	0.0768	0	0
UGUACGCGAG	0.209	0.162	0.126	0.0871
UCAACGGGCG	0.118	0.700	0.124	0.100
UUUACGGUCG	0.105	0.120	0.0169	0
UGUACGGUGG	0.248	0.0889	0	0
UCGGCGCAGG	0.288	0.113	0.0841	0.00684
UCAACGGAUG	0.157	0.0896	0.0184	0.0127
UCGUCGCACG	0.170	0.0715	0	0
CGACCGAGAG	0.0261	3.45	1.05	0.469
UCGGCGUUGG	0.353	0.0883	0	0
UAGGCGGGGG	0.248	0.0778	0	0
UUGGAGCCAG	0.0131	0	0	0
UUUACGAUGG	0.314	0.0770	0	0
UGAUCGGCGG	0.183	0.0478	0.00773	0
UCAACGGACG	0.157	0.843	0.164	0.0399
UGCACGCAGG	0.196	0.0947	0	0
UAAUCGUCCG	0.366	0.0827	0	0
UAUCCGCUCG	0.288	0.0775	0	0
UGGACGCAGG	0.209	0.113	0	0

Samples held 36,220 to 57,551 reads, so the smallest values rest on one or two reads.
Wild type was 20.7 per thousand in the pool and the most common sequence in every sample (inoculated region 195, 198, 203; leaf margin 629, 591, 734; systemic leaves 942, 870, 868).
Sequences that differ at fixed positions probably stem from PCR or sequencing errors, and defective variants can be carried along by functional ones.